The results in this text go back to paper PMC7242495.

The subject of the data set is CadR (Pseudomonas aeruginosa). Briefly: EMSA. The settings on record: Zn added, 250 nM CadR, EMSA: 10 mM Tris pH 8.0, 40 mM KCl, 10 mM MgCl2, 1 mM DTT, 5% glycerol, 25 ng DNA, +/- Zn or EDTA, 30 min room temperature, gel at 4 C, recombinant protein, residues 1-156, probe letters rebuilt from the primers and the genome. A general note: Mobility shift assays separate free from complexed probe on a gel.

The exact form of at least one protein or probe is not confirmed. At least one verdict was read from the data and is not stated in words by the source.

Take “CCATGATCATGTCCGTGACCGTGACCGTGACAGCAAGTGTCGGCGTGTTCGTGGCTCATGGAAACAATTCCCGTTTGACGTGTTGGGTGCGATTGCACACCCTGTAGCAACTACAGAGTCAAGCGGTACTGCCAATTCGGGTAGCCGCGTCGGCGATTGGAGGAGGGTTGGCATGAAGATCGGTGAGCTGGCGAAGAGAACCGGTT (double strand) [pcadA WT promoter (EMSA)]”: the binding result is “binds”.
